Compound potency records, mixed from different reports. Data source: NIAID ChemDB in PubChem.

All rows: host cell toxicity; cell line: OM-10.1; read-out: CC50

An empty or dashed field is not shown.

smiles	method	value
COC(=O)C1=C2Nc3ccccc3[C@@]23CCN2C[C@]4(C[C@@H]5C[C@]67CCO[C@H]6CCC6NC[C@@]8(c9cccc(OC)c9N(C4)[C@@H]58)[C@@H]67)[C@@H]4OCCC4(C1)[C@H]23	absorbance	>10 µM
COc1cccc2c1c(=O)c1ccccc1n2C		13 µg/mL
COc1ccc2[nH]c(=O)c(CN(Cc3cccnc3)S(=O)(=O)c3cccc4nsnc34)cc2c1	MTT	>10 µM
Cn1c2ccccc2c(=O)c2ccccc21		16 µg/mL
COc1ccc2[nH]c3ccccc3c(=O)c2c1OC		32 µg/mL
O=S(=O)(Cc1c(Cl)c(Cl)c(Cl)c(Cl)c1Cl)c1cccc[n+]1[O-]	MTT	5 µg/mL
COc1ccc2[nH]c3ccccc3c(=O)c2c1OC		32 µg/mL
COc1ccc2c(c1OC)c(=O)c1ccccc1n2C		28 µg/mL
COc1cc(O)c2c(=O)c3ccccc3n(C)c2c1		0.8 µg/mL
Cn1cc(C(=O)O)c(=O)c2cc(F)c(N3CC=C(c4ccccc4)CC3)c(C(F)(F)F)c21		>1 µM
COc1ccc(O)c2c(=O)c3ccccc3n(C)c12		16 µg/mL
Cn1c2ccccc2c(=O)c2c(O)c(O)ccc21		7.8 µg/mL
CCn1cc(C(=O)O)c(=O)c2cc(F)c(N3CCN(c4ccccc4OC)CC3)c(OC(F)F)c21		9.3 µM
CCn1cc(C(=O)O)c(=O)c2cc(F)c(N3CCN(c4ccccc4OC)CC3)c(OC(F)F)c21		>4 µM
COc1ccc2c(c1OC)c(=O)c1ccccc1n2C		28 µg/mL
COc1cc(OC)c2c(=O)c3ccccc3n(C)c2c1		8 µg/mL
Cn1c2ccccc2c(=O)c2c(O)c(O)ccc21		7.8 µg/mL
COc1ccc(O)c2c(=O)c3ccccc3n(C)c12		16 µg/mL
N#Cc1c(C2CCNCC2)cc(-c2c(O)cccc2OCC2CC2)nc1N	WST	15 µM

Neighbouring rows are from separate reports. CCn is the concentration with n% toxicity to the cells.